Pooled drug test results. Numbers come from NIAID ChemDB, via PubChem.

All rows: growth or infection tests; agent: Mycobacterium tuberculosis

a–b is a range or a potency band. Inhibition is in % at the dose shown (toxicity tests: loss of growth or viability). ECn: concentration that inhibits the pathogen or its effect by n%. MIC bound: limit read from a one-dose screen. Neighbouring rows are from separate reports. Blank or dashed fields: not listed here. A number after MIC or MFC names an inhibition level or a share of isolates.

smiles	cell line	setting	endpoint	tested at	read by	strain or isolate	result
O=c1oc2ccc(F)cc2c(=S)n1-c1ccccc1		21 d	MIC			My 331/88	4 µM
CCOC(=O)Nc1cc(NCCC(O)c2ccccc2)c([N+](=O)[O-])c(N)n1			EC50			H37Rv	>12.5 µg/mL
COc1ccc2oc(=S)n(-c3ccc(F)cc3)c(=S)c2c1		21 d	MIC			My 331/88	32 µM
NNC(=O)c1ccncc1			MIC			PR1282	0.08 µg/mL
CC(C)c1ccc2c(c1)CC[C@H]1[C@](C)(CNCCNCCCCO)CCC[C@]21C			MIC				50 µM
CN[C@@H]1[C@H](O[C@H]2[C@H](O[C@H]3[C@H](O)[C@@H](O)[C@H](N=C(N)N)[C@@H](O)[C@@H]3N=C(N)N)O[C@@H](C)[C@]2(O)C=O)O[C@@H](CO)[C@H](O)[C@H]1O			MIC50			ATCC 27294	0.01 µM
CC1(C)[C@H]2CC[C@@H](CNCCN[C@H]3C[C@H]4CC[C@]3(C)C4(C)C)[C@@H]1C2			MIC				3.13 µM
Fc1cccc(-n2c(=S)oc3ccc(Cl)cc3c2=S)c1		14 d	MIC			My 331/88	2 µM
COC(=O)C1=CO[C@@H](C)[C@@H]2CN3CCc4c([nH]c5ccccc45)[C@@H]3C[C@H]12			inhibition	12.8 µg/mL	BACTEC	H37Rv	56%
Cc1ccc2c(c1)N(CC1CCCCC1)C(=O)c1cc(Cl)nnc1O2			EC50		BACTEC	H37Rv	<12.5 µg/mL
CCCCCC(C)SC1(C(=O)OC)CC(OC(C)=O)C(NC(C)=O)C(C(OC(C)=O)C(COC(C)=O)OC(C)=O)O1			MIC bound		resazurin	H37Rv	>6.25 µg/mL
NC1[C@H]2CN(c3nc4c(cc3F)c(=O)c(C(=O)O)cn4-c3ccc(F)cc3F)C[C@@H]12			Mean MIC			44 isolates (resistant)	34.6 µg/mL
CCOC(=O)Nc1cc2[nH]c(CCc3ccccc3)nc2c(N(CCc2ccccc2)Cc2ccccc2)n1			EC50			H37Rv	<12.5 µg/mL
CO[C@@]12[C@H](COC(N)=O)C3=C(C(=O)C(C)=C(N)C3=O)N1C[C@H]1[C@@H]2N1C(=O)/C=C/c1ccccc1			MIC			PZA-R	<0.1 µg/mL
CC(=O)c1c(C)n([O-])c2ccc(Cl)cc2[n+]1=O		inside macrophages	MIC			H37Rv	0.78 µg/mL
C=CCn1c(-c2cc3ccccc3oc2=O)cs/c1=N\N=C\c1ccc(Cl)cc1			EC50			H37Rv	>12.5 µg/mL
O=C(CCC(=O)c1cccs1)NC[C@H]1CN(c2ccc(-n3cncn3)c(F)c2)C(=O)O1			MIC			10 clinical isolates sensitive	1–2 µg/mL
CC(C)(C)OC(=O)NC(Cc1ccccc1)C(=O)NC(CO)C(=O)NN			MIC		BACTEC	H37Rv	≥12.8 µg/mL
O=C(CCC(=O)c1ccc(Cl)cc1)NC[C@H]1CN(c2ccc(-n3cncn3)c(F)c2)C(=O)O1			MIC			10 clinical isolates resistant	4–16 µg/mL
Cc1nnc2n1N=C(c1ccc(-c3ccc([N+](=O)[O-])cc3)o1)CS2			MIC bound		BACTEC	H37Rv	>12.5 µg/mL
O=c1oc2ccc(Cl)cc2c(=O)n1-c1ccc(C(F)(F)F)cc1			MIC			CNCTC MY331/88	1 µM
O=c1oc2ccc(Br)cc2c(=S)n1-c1ccc(C(F)(F)F)cc1		21 d	MIC			My 331/88	4 µM
Fc1ccccc1CNCCNC(c1ccccc1)c1ccccc1			MIC				50 µM
Nc1ccc(N=Nc2ccc3cc4ccc(N=Nc5ccc(N)nc5N)cc4nc3c2)c(N)n1			inhibition	12.5 µg/mL	BACTEC	H37Rv	61%
CC(Nc1ccnc(N)c1[N+](=O)[O-])/C(=N\O)c1ccc(O)cc1			inhibition	12.5 µg/mL		H37Rv	10%
CC1C(=O)OC2CC[N+]3(C)CC=C(COC(=O)C(C)(O)C1(C)O)C23.[Br-]			MIC bound		BACTEC	H37Rv	>12.5 µg/mL
CCn1c(-c2cc3ccccc3oc2=O)cs/c1=N\N=C\c1cc(Br)ccc1O			MIC			H37Rv	>12.5 µg/mL
Cc1c(N2C[C@@H](N)C3(CC3)C2)c(F)c(N)c2c(=O)c(C(=O)O)cn(C3CC3)c12			MIC50			27 strains (levofloxacin-susceptible)	0.78 µg/mL
CO/N=C1\CN(c2nc3c(cc2F)c(=O)c(C(=O)O)cn3C2CC2)CC1CN			MIC50			250 isolates	4 µg/mL
Fc1ccc(-c2c(C(c3ccccc3)n3ccnc3)cnn2-c2ccc(F)cc2)cc1			MIC50			ATCC 35822 (isoniazid-resistant)	≥100 µM
Cc1ccc(S(=O)(=O)NCCCNC(=O)OCc2ccccc2)cc1			inhibition	6.25 µg/mL	resazurin	H37Rv	15%
CCOC(=O)c1ccc(-n2c(=O)oc3ccc(Cl)cc3c2=O)cc1			MIC			CNCTC MY331/88	8 µM
COc1ccc2oc(=S)n(-c3ccc(Br)cc3)c(=S)c2c1		14 d	MIC			My 331/88	8 µM
Cc1c(C(=O)c2ccccc2)[n+](=O)c2cc(Cl)c(Cl)cc2n1[O-]	VERO		MIC		BACTEC	H37Rv	6.25 µg/mL
CC(=O)OCC1C(OC(C)=O)C(OC(C)=O)C(n2cnc3c(N)ncnc32)N1C(C)=O			inhibition	6.25 µg/mL	resazurin	H37Rv	3%
CCOC(=O)Nc1cc(NCc2ccccc2)c(N)c(N)n1			EC50			H37Rv	>12.5 µg/mL
CCS(=O)(=O)O.OC1CC2CCC(C1)N2CCCN1c2ccccc2Sc2ccc(Cl)cc21			inhibition	12.5 µg/mL	BACTEC	H37Rv	93%
CC1COc2c(N3CCN(C)CC3)c(F)cc3c(=O)c(C(=O)O)cn1c23			MIC90			ATCC 35828 (pyrazinamide-resistant)	2.8 µM
Cc1ccc(NC(=O)c2cnccn2)c(=O)o1			MIC bound		BACTEC	H37Rv	>6.25 µg/mL
CCCCCN1C(=O)c2cc(Cl)nnc2Oc2cc(C)ccc21			EC50		BACTEC	H37Rv	<12.5 µg/mL
Clc1ccc(-n2ncc(C(c3ccccc3)n3ccnc3)c2-c2ccccc2)cc1			MIC90			ATCC 35820 (streptomycin-resistant)	≥100 µM
CC[C@@H](CO)NCCN[C@@H](CC)CO			MIC			Isolate 17	1 µg/mL
CN(C)c1ccc2nc3ccc(=[N+](C)C)c([N+](=O)[O-])c-3sc2c1			inhibition	12.5 µg/mL	BACTEC	H37Rv	17%
O=c1oc2ccc(F)cc2c(=S)n1-c1cccc(Cl)c1		21 d	MIC			My 331/88	2 µM
c1ccc(CNCCN[C@H]2C[C@@H]3CC[C@H]2C3)cc1			MIC				50 µM
Cc1cc2c(cc1Cl)SC(NNC(=O)c1ccccc1)=NS2(=O)=O			MIC bound		resazurin	H37Rv	>6.25 µg/mL
Fc1ccc(-c2c(C(c3ccccc3)n3ccnc3)cnn2-c2ccc(F)cc2F)cc1			MIC50			ATCC 35828 (pyrazinamide-resistant)	≥100 µM
COc1ccc(CCNCCNC(C)(C)CO)cc1			MIC				50 µM
O=C1c2ccccc2C(=O)c2c1ccc1c2OCO1			MIC bound		BACTEC	H37Rv	>12.5 µg/mL
Clc1ccc(-c2c(C(c3ccccc3)n3ccnc3)cnn2-c2ccc(Cl)cc2Cl)cc1			MIC90			ATCC 35828 (pyrazinamide-resistant)	>100 µM
Cc1ccc2c(c1)Oc1nnc(Cl)cc1C(=O)N2Cc1ccccc1			EC50		BACTEC	H37Rv	<12.5 µg/mL
Fc1ccc(-c2c(C(c3ccccc3)n3ccnc3)cnn2-c2ccccc2)cc1			MIC90			ATCC 35822 (isoniazid-resistant)	≥100 µM
CCn1c(-c2cc3cc(Br)ccc3oc2=O)cs/c1=N\N=C\c1ccc(Cl)cc1			MIC			H37Rv	>12.5 µg/mL
CC(CNC1CCCCCCC1)NC[C@@H]1CC[C@H]2C[C@@H]1C2(C)C			MIC				12.5 µM
CC(=O)c1c(C)n([O-])c2ccc(C)cc2[n+]1=O	VERO		inhibition	6.25 µg/mL	BACTEC	H37Rv	100%
C[C@@H]1CN(c2c(F)c(N)c3c(=O)c(C(=O)O)cn(C4CC4)c3c2F)C[C@H](C)N1			MIC			Isolate 1	1 µg/mL
Fc1ccc(-n2ncc(C(c3ccccc3)n3ccnc3)c2-c2ccccc2)c(F)c1			MIC90			ATCC 35820 (streptomycin-resistant)	≥100 µM
CCOC(=O)Nc1cc2c(c(N)n1)N=C(c1ccc3c(c1)OCO3)C(C)N2	VERO		EC50			H37Rv	<12.5 µg/mL
C[C@H]1COc2c(N3CCN(C)CC3)c(F)cc3c(=O)c(C(=O)O)cn1c23			MIC90			18 strains (levofloxacin-resistant)	12.5 µg/mL
Clc1ccc(-c2c(C(c3ccccc3)n3ccnc3)cnn2-c2ccccc2)cc1			MIC90			ATCC 35837 (ethambutol-resistant)	≥100 µM
NNC(=O)c1ccncc1			MIC50			18 strains (levofloxacin-resistant)	25 µg/mL
Cc1ccc2c(c1)N(CCC(C)C)C(=O)c1cc(Cl)nnc1O2			EC50		BACTEC	H37Rv	<12.5 µg/mL
Cc1ccc(C(=S)CCC(=O)NC[C@H]2CN(c3ccc(N4CCOCC4)c(F)c3)C(=O)O2)cc1			MIC			ATCC 27294	>16 µg/mL
CC(=O)c1cccc(NC(=O)C(=O)NNc2n[nH]c(=S)n2N)c1			MIC bound		BACTEC	H37Rv	≤12.5 µg/mL
Cc1cc2c(cc1C)[n+](=O)c(C(=O)CBr)c(CBr)n2[O-]			inhibition	6.25 µg/mL	BACTEC	H37Rv	0%
O=C(CCC(=O)c1ccc(F)cc1F)NC[C@H]1CN(c2ccc(-n3cncn3)c(F)c2)C(=O)O1			MIC			ATCC 27294	8 µg/mL
CC1(N2C(=O)OC(c3ccccc3)C2=O)C(=O)N2CCSC21c1ccccc1			inhibition	12.5 µg/mL	BACTEC	H37Rv	0%
Cc1ccc(-n2c(=O)oc3ccc(C)cc3c2=S)cc1		14 d	MIC			My 331/88	0.5 µM
CC(=O)c1c(CN2CCN(c3ccc(Cl)cc3)CC2)n([O-])c2cc(C)c(C)cc2[n+]1=O			inhibition	6.25 µg/mL	BACTEC	H37Rv	0%
Cc1ccc(NCCNCC(C)(C)O)c2c(=O)c3ccc(Cl)cc3sc12			inhibition	12.5 µg/mL	BACTEC	H37Rv	100%
CC(=O)c1c(C)n([O-])c2ccccc2[n+]1=O		inside macrophages	MIC			H37Rv	3.13 µg/mL
CCCCCCCCCC(=O)N1c2ccccc2Sc2ccccc21			MIC bound		BACTEC	H37Rv	>12.5 µg/mL
NC[C@H]1O[C@H](O[C@H]2[C@H](O)[C@@H](O[C@H]3O[C@H](CO)[C@@H](O)[C@H](N)[C@H]3O)[C@H](N)C[C@@H]2N)[C@H](O)[C@@H](O)[C@@H]1O			MIC			Isolate 8	2 µg/mL
CC(=O)c1c(CN2CCN(c3ccc(Cl)cc3)CC2)n([O-])c2cc(Cl)c(Cl)cc2[n+]1=O			EC50		BACTEC	H37Rv	>6.25 µg/mL
CCCCn1c(-c2cc3ccccc3oc2=O)cs/c1=N\N=C\c1ccc(O)c(OCC)c1			inhibition	12.5 µg/mL		H37Rv	94%
C1=C(CCNCCNCCCc2ccccc2)CCCC1			MIC				12.5 µM
CO[C@H]1/C=C/O[C@@]2(C)Oc3c(C)c(O)c4c(=O)c(c5oc6cc(N7CCN(CC(C)C)CC7)cc(=O)c6nc5c4c3=C2O)NC(=O)/C(C)=C\C=C\[C@H](C)[C@H](O)[C@@H](C)[C@@H](O)[C@@H](C)[C@H](OC(C)=O)[C@@H]1C			MIC			TN807	2 µg/mL
CSC(=S)NCC(=O)O			MIC bound		BACTEC	H37Rv	>128 µg/mL
COC(=O)Nc1cc(Cl)c([N+](=O)[O-])c(NC(=O)OC)n1			EC50			H37Rv	>12.5 µg/mL
CC(C)=CC(=O)O[C@H]1[C@@H]2[C@H](C)C(=O)O[C@@H]2C[C@@H](C)[C@@H]2[C@@H](O)CC(=O)[C@]21C			MIC bound		BACTEC	H37Rv	>12.8 µg/mL
COc1ccc2c(=O)n(-c3cccc([N+](=O)[O-])c3)c(=O)oc2c1			MIC			CNCTC MY331/88	8 µM
C1=C(CCNCCNCC2CCCO2)CCCC1			MIC				50 µM
COc1ccc(OCc2c(C(C)=O)[n+](=O)c3ccccc3n2[O-])cc1	VERO		inhibition	6.25 µg/mL	BACTEC	H37Rv	100%
O=c1oc2ccccc2c(=O)n1-c1cccc([N+](=O)[O-])c1			MIC			CNCTC MY331/88	31 µM

10 of the rows above, restated:

smiles,cell line,setting,endpoint,tested at,read by,strain or isolate,result
Cc1cc2c(cc1C)[n+](=O)c(C(=O)CBr)c(CBr)n2[O-],,,inhibition,6.25 µg/mL,BACTEC,H37Rv,0%
CCCCn1c(-c2cc3ccccc3oc2=O)cs/c1=N\N=C\c1ccc(O)c(OCC)c1,,,inhibition,12.5 µg/mL,,H37Rv,94%
COc1ccc2c(=O)n(-c3cccc([N+](=O)[O-])c3)c(=O)oc2c1,,,MIC,,,CNCTC MY331/88,8 µM
COc1ccc(CCNCCNC(C)(C)CO)cc1,,,MIC,,,,50 µM
NC[C@H]1O[C@H](O[C@H]2[C@H](O)[C@@H](O[C@H]3O[C@H](CO)[C@@H](O)[C@H](N)[C@H]3O)[C@H](N)C[C@@H]2N)[C@H](O)[C@@H](O)[C@@H]1O,,,MIC,,,Isolate 8,2 µg/mL
Cc1ccc(NCCNCC(C)(C)O)c2c(=O)c3ccc(Cl)cc3sc12,,,inhibition,12.5 µg/mL,BACTEC,H37Rv,100%
CC(=O)c1c(C)n([O-])c2ccc(Cl)cc2[n+]1=O,,inside macrophages,MIC,,,H37Rv,0.78 µg/mL
Cc1c(N2C[C@@H](N)C3(CC3)C2)c(F)c(N)c2c(=O)c(C(=O)O)cn(C3CC3)c12,,,MIC50,,,27 strains (levofloxacin-susceptible),0.78 µg/mL
O=c1oc2ccc(Br)cc2c(=S)n1-c1ccc(C(F)(F)F)cc1,,21 d,MIC,,,My 331/88,4 µM
CCOC(=O)Nc1cc2c(c(N)n1)N=C(c1ccc3c(c1)OCO3)C(C)N2,VERO,,EC50,,,H37Rv,<12.5 µg/mL